Measured values from several laboratories, pooled; numbers as filed in NIAID ChemDB.

All rows: whole-cell or culture tests; agent: HIV-1; cells: MT-4; endpoint: EC50

ECn is the concentration giving n% inhibition of infection, replication or growth. Lines come from different laboratories, so protocols vary. a–b is a range or a potency band. Blank or dashed fields: not listed here.

Cc1nc2ccccc2c(-c2cc(F)c3c(c2C)CCCO3)c1[C@H](OC(C)(C)C)C(=O)O ; strain: NL4-3 ; changes: G140S/Q148H/N155H ; method: luminescence ; value: 0.025 µM
COc1ccccc1NC(=S)Nc1nc(NCCc2ccc(OC)c(OC)c2)nc(Oc2cc(=O)oc3ccccc23)n1 ; strain: IIIB ; method: MTT ; value: >19.63 µg/mL
CC1(C)CC=C(c2cn(-c3nccc(C(=O)NC4CCC(N5CC6CCC(C5)O6)CC4)n3)c3ccc(F)c([C@H](OC(C)(C)C)C(=O)O)c23)CC1 ; strain: NL4-3 ; changes: L74I/T124A/G140S/Q148H ; method: luminescence ; value: 0.0056 µM
Cc1ccnc2c1NC(=O)c1cccnc1N2C1CC1 ; strain: IIIB ; method: MTT ; value: 0.08 µM
CCOCn1c(Cc2ccccc2)c(C(C)C)c(=O)[nH]c1=O ; strain: IIIB ; changes: K103N + Y181C ; method: MTT ; value: >100 µM
CC1(C)CC(n2c(=O)c(O)c3n(c2=O)CCN(Cc2ccc(F)cc2)C3=O)CCO1 ; method: p24 ; value: <10 µM
CCOC(=O)CNc1nc(NC(=O)Nc2ccc3ccccc3c2)nc(Oc2cc(=O)oc3ccccc23)n1 ; strain: IIIB ; method: MTT ; value: >125 µg/mL
CCCOCn1c(C(F)c2cccc(C#N)c2)c(CC)c(=O)[nH]c1=O ; strain: IIIB ; changes: K103N + Y181C ; method: MTT ; value: 14 µM
CCc1c(Cc2cc(C)cc(C)c2)n(Cc2ccc(C#CCF)cc2)c(=O)[nH]c1=O ; strain: IIIB ; changes: EFV:K103R+V179D+P225H ; method: MTT ; value: >2 µM
COc1ccc(CCNc2nc(NC(=O)Nc3ccccc3Cl)nc(Oc3cc(=O)oc4ccccc34)n2)cc1OC ; strain: IIIB ; method: MTT ; value: >51.15 µg/mL
CC(C)n1c(=O)c(O)c2n(c1=O)CCN(Cc1ccccc1C#N)C2=O ; method: p24 ; value: <10 µM
CCOC(=O)CNc1nc(Nc2cccc(C)c2)nc(Oc2cc(=O)oc3ccccc23)n1 ; strain: IIIB ; method: MTT ; value: >65.28 µg/mL
N#CC1=CC2C(c3ccccc3N2CCCN2CCCCC2)N(c2ccc([N+](=O)[O-])cc2)C1=O ; strain: LAI ; method: cytopathic effect / MTT ; value: <1 µM
CC(=O)OCCOCn1cc(Cn2cc(C)c(=O)[nH]c2=O)nn1 ; strain: IIIB ; method: cytopathic effect ; value: >100 µg/mL
CCOC(=O)CNc1nc(NC(=O)Nc2ccc(OCC)cc2)nc(Oc2cc(=O)oc3ccccc23)n1 ; strain: IIIB ; method: MTT ; value: >125 µg/mL
CCOCn1c(C(=O)c2cccc(C#N)c2)c(CC)c(=O)[nH]c1=O ; strain: IIIB ; changes: K103N + Y181C ; method: MTT ; value: 67 µM
C#CCn1cc(Br)c(=O)[nH]c1=O ; strain: IIIB ; method: cytopathic effect ; value: >100 µg/mL
C=C(C)COCn1c(Cc2ccccc2)c(CO)c(=O)[nH]c1=O ; method: MTT ; value: >20 µM
O=C1c2c(O)c(=O)n(C3CCS(=O)(=O)CC3)c(=O)n2CCN1Cc1ccc(F)cc1 ; method: p24 ; value: <10 µM
CCOC(=O)CNc1nc(Nc2cccc(Cl)c2)nc(Oc2cc(=O)oc3ccccc23)n1 ; strain: IIIB ; method: MTT ; value: >56 µg/mL
COc1ccc(/C=N/n2sc3ccc(C)cc3c2=O)cc1 ; changes: Y181C ; method: MTT ; value: >55 µM
COc1c(O)cc2ccc(=O)oc2c1-c1c(O)ccc2ccc(=O)oc12 ; strain: IIIB ; method: MTT ; value: 8.7 µM
O=c1c2ccccc2sn1/N=C/c1cccc(O)c1 ; changes: K103N + Y181C ; method: MTT ; value: >15 µM
C#CCOCn1c(Cc2ccccc2)c(CF)c(=O)[nH]c1=O ; strain: IIIB ; changes: EFV:K103R+V179D+P225H ; method: MTT ; value: >100 µM
CN1c2ccccc2C2C1C=CC(=O)N2c1ccc(C#N)cc1 ; strain: LAI ; method: cytopathic effect / MTT ; value: 1–32 µM
O=C1c2c(O)c(=O)n(N3CCCCCC3)c(=O)n2CCN1Cc1ccc(F)cc1 ; method: p24 ; value: <10 µM
Cc1ccc2sn(/N=C/c3cccc(Cl)c3)c(=O)c2c1 ; changes: K103N + Y181C ; method: MTT ; value: >59 µM
C=CCOCn1c(Cc2ccccc2)c(CF)c(=O)[nH]c1=O ; strain: IIIB ; changes: EFV:K103R+V179D+P225H ; method: MTT ; value: >100 µM
CCOCn1c(Cc2ccccc2)c(C(C)C)c(=O)[nH]c1=O ; changes: K103N + Y181C ; method: MTT ; value: >100 µM
CCc1c(Cc2cc(C)cc(C)c2)n(Cc2ccc(C#CCO)cc2)c(=O)[nH]c1=O ; strain: IIIB ; changes: K103N + Y181C ; method: MTT ; value: >2 µM
Cc1ccc2sn(/N=C/c3ccccc3Cl)c(=O)c2c1 ; strain: 59 ; method: MTT ; value: 82 µM
C#CCn1cc(Cl)c(=O)[nH]c1=O ; strain: IIIB ; method: cytopathic effect ; value: >100 µg/mL
CC(=O)N1CCC(n2c(=O)c(O)c3n(c2=O)CCN(Cc2ccc(F)cc2)C3=O)CC1 ; method: p24 ; value: <10 µM
C#CCn1ccc(=O)[nH]c1=O ; strain: IIIB ; method: cytopathic effect ; value: >100 µg/mL
CN1CCN(C(=O)CN2c3ccccc3C3C2C=C(C#N)C(=O)N3c2ccc([N+](=O)[O-])cc2)CC1 ; strain: LAI ; method: cytopathic effect / MTT ; value: 1–32 µM
COc1cc(/C=N/n2sc3ccc(C)cc3c2=O)ccc1O ; changes: K103N + Y181C ; method: MTT ; value: >16 µM
O=c1[nH]c(=O)n(Cc2cn(COCCO)nn2)cc1F ; strain: IIIB ; method: cytopathic effect ; value: >100 µg/mL
O=C1c2c(O)c(=O)nc(NCc3ccccc3)n2CCN1Cc1ccc(F)cc1 ; method: p24 ; value: <10 µM
CN1c2ccccc2C2C1C=CC(=O)N2c1ccc(C(=O)O)cc1 ; strain: LAI ; method: cytopathic effect / MTT ; value: 1–32 µM
CCOC(=O)CNc1nc(Nc2ccccc2Cl)nc(Oc2cc(=O)oc3ccccc23)n1 ; strain: IIIB ; method: MTT ; value: >67.7 µg/mL
CC(=O)OCCOCn1cc(Cn2cc(Br)c(=O)[nH]c2=O)nn1 ; strain: IIIB ; method: cytopathic effect ; value: >100 µg/mL
Cc1ccc2sn(/N=C/c3ccc([N+](=O)[O-])cc3[N+](=O)[O-])c(=O)c2c1 ; method: MTT ; value: >100 µM

Repeating the final 3 entries:

structure	strain	changes	method	value
CCOC(=O)CNc1nc(Nc2ccccc2Cl)nc(Oc2cc(=O)oc3ccccc23)n1	IIIB	-	MTT	>67.7 µg/mL
CC(=O)OCCOCn1cc(Cn2cc(Br)c(=O)[nH]c2=O)nn1	IIIB	-	cytopathic effect	>100 µg/mL
Cc1ccc2sn(/N=C/c3ccc([N+](=O)[O-])cc3[N+](=O)[O-])c(=O)c2c1	-	-	MTT	>100 µM